Compound potency records, mixed from different reports. Data source: NIAID ChemDB in PubChem.

All rows: growth or infection tests; agent: Cytomegalovirus; cell line: HEL; measure: EC50

ECn is the concentration giving n% inhibition of infection, replication or growth.

compound | strain | method | result
CN1c2ccccc2C(C)(C)C12C=Nc1c(ccc3ccccc13)O2 | AD169 | plaque count | >9.8 µM
CC(C)(C)c1cn([C@H]2C[C@H](O)[C@@H](CO)O2)c(=O)[nH]c1=O | DAVIS/AD169 | plaque count | >1500 µM
CCC(C)C1NC(=O)N(CC2CCCCC2)C1=O | AD169 | plaque count | >20 µg/mL
Nc1ncnc2c1ncn2C[C@H](CO)OCP(=O)(O)O | AD169 | cytopathic effect | 231 µM
Nc1ccn(C[C@@H](CO)OCP(=O)(O)O)c(=O)n1 | DAVIS | cytopathic effect | 0.4 µg/mL
CCCCCCc1cc2cn(CCCC)c(=O)nc2o1 | AD169 | cytopathic effect | 19 µM
Nc1nc2c(ncn2COC2COP(=O)(O)OC2)c(=O)[nH]1 | DAVIS | plaque count | 1 µg/mL
Nc1ncnc2c1ncn2C[C@@H](CO)OCP(=O)(O)O | AD169 | cytopathic effect | 1.4 µM
CCCc1cn([C@H]2C[C@H](O)[C@@H](CO)O2)c(=O)[nH]c1=O | DAVIS/AD169 | plaque count | >1500 µM
CN1c2ccc(Cl)cc2C(C)(C)C12C=Cc1cc([N+](=O)[O-])ccc1O2 | AD169 | plaque count | >1.8 µM
Nc1ncc2ncn(C[C@@H](CF)OCP(=O)(O)O)c2n1 | AD169 | cytopathic effect | >300 µM
Nc1ncnc2c1ncn2C[C@@H](CO)OCP(=O)(O)O | AD169 | plaque count | 0.1 µg/mL
CN1c2ccccc2C(C)(C)C12C=Cc1cc([N+](=O)[O-])ccc1O2 | AD169 | plaque count | >12.4 µM
O=c1c2ncn(COC(CO)CO)c2nc2[nH]c(-c3ccccc3)cn12 | AD169 | plaque count | 20 µg/mL
COc1ccc2c(c1)OC1(C=C2)N(C)c2ccccc2C1(C)C | AD169 | plaque count | >10.4 µM
OC[C@H]1O[C@@H](n2c(SCc3ccccn3)nc3cc(Cl)c(Cl)cc32)[C@H](O)[C@@H]1O | - | cytopathic effect | >50 µg/mL
Nc1ncnc2c1ncn2C[C@@H](CF)OCP(=O)(O)O | AD169 | cytopathic effect | >300 µM
O=C(NC(c1ccccc1)c1ccccc1)[C@H](Cc1ccccc1)NC(=O)n1nnc2ccccc21 | DAVIS | plaque count | >3.2 µg/mL
Nc1nc(=O)n([C@@H]2O[C@H](CO)[C@@H](O)[C@@H]2F)cc1I | AD169 | cytopathic effect | 7 µg/mL
CC(C)C[C@H](NC(=O)n1nnc2ccccc21)C(=O)NC(c1ccccc1)c1ccccc1 | DAVIS | plaque count | >16 µg/mL
CN1c2ccc([N+](=O)[O-])cc2C(C)(C)C12C=Cc1ccccc1O2 | AD169 | plaque count | >49.8 µM
OCCOCn1c(SCc2ccccn2)nc2cc(Cl)c(Cl)cc21 | - | cytopathic effect | >50 µg/mL
OC[C@H]1O[C@@H](c2cc(C(O)C(Br)Br)c(F)cc2F)C[C@@H]1O | AD169 | cytopathic effect | >200 µg/mL
CC(C)C[C@H](NC(=O)n1nnc2ccccc21)C(=O)NC1CCCC1 | DAVIS | plaque count | >80 µg/mL
CC(C)(C)c1cn([C@H]2C[C@H](O)[C@@H](CO)S2)c(=O)[nH]c1=O | DAVIS/AD169 | plaque count | >1500 µM
CC(C)C[C@H](NC(=O)n1nnc2ccccc21)C(=O)NC1CCCCC1 | AD169 | plaque count | >16 µg/mL
CCc1nc([N+](=O)[O-])c(Sc2ccccc2)n1Cc1ccccc1 | DAVIS | cytopathic effect | 1.3 µg/mL
OCCOCn1c(CCc2ccccn2)nc2cc(Cl)c(Cl)cc21 | - | cytopathic effect | >100 µg/mL
COc1ccc2c(c1)C=CC1(O2)N(C)c2ccccc2C1(C)C | AD169 | plaque count | >10.4 µM
C[C@H](Cn1cnc2c(=O)[nH]c(N)nc21)OCP(=O)(O)O | AD169 | cytopathic effect | 71 µM
OCCOCn1c(CCc2ccccn2)nc2ccccc21 | - | cytopathic effect | >100 µg/mL
CC1(C)[C@@H](CCO)C[C@H]1n1nnc2c(N)ncnc21 | AD169 | plaque count | >20 µg/mL
CC(C)CS[C@H]1C[C@@H](n2cnc3c(N)ncnc32)[C@H](O)[C@@H]1O | DAVIS | cytopathic effect | >200 µg/mL
O=c1[nH]c(=O)n([C@H]2C[C@H](O)[C@@H](CO)S2)cc1C1CCCCC1 | DAVIS/AD169 | plaque count | >1200 µM
CC1(C)[C@@H](CCO)C[C@H]1n1cnc2c(=O)[nH]cnc21 | AD169 | plaque count | >50 µg/mL
CC(C)C[C@H](NC(=O)n1nnc2ccccc21)C(=O)NCC1CCCCC1 | AD169 | plaque count | >80 µg/mL
CCCCCCCn1cc2cc(CCCCCC)oc2nc1=O | DAVIS | cytopathic effect | 20 µM
Nc1nc(N)c2ncn(C[C@H](CO)OCP(=O)(O)O)c2n1 | AD169 | cytopathic effect | 151 µM
O=c1[nH]c(=O)n([C@H]2C[C@H](O)[C@@H](CO)O2)cc1C1CC1 | DAVIS/AD169 | plaque count | >1500 µM
CC1(C)[C@@H](CCO)C[C@H]1n1cnc2c(N)ncnc21 | AD169 | plaque count | 20 µg/mL
CCCCCCc1cc2cnc(OC)nc2o1 | DAVIS | cytopathic effect | 4.7 µM
OC[C@H]1O[C@@H](c2cc(C(O)CBr)c(F)cc2F)C[C@@H]1O | DAVIS | cytopathic effect | >20 µg/mL

The first 4 rows once more:

compound,strain,method,result
CN1c2ccccc2C(C)(C)C12C=Nc1c(ccc3ccccc13)O2,AD169,plaque count,>9.8 µM
CC(C)(C)c1cn([C@H]2C[C@H](O)[C@@H](CO)O2)c(=O)[nH]c1=O,DAVIS/AD169,plaque count,>1500 µM
CCC(C)C1NC(=O)N(CC2CCCCC2)C1=O,AD169,plaque count,>20 µg/mL
Nc1ncnc2c1ncn2C[C@H](CO)OCP(=O)(O)O,AD169,cytopathic effect,231 µM

Lines come from different laboratories, so protocols vary. Blank or dashed fields: not listed here.